# Laboratory results: PubChem BioAssay AID1621 (Southern Research Specialized Biocontainment Screening …, 2009)
# Some of the results follow. Results with a measured potency or affinity are listed apart. The source made the active and inactive calls. How the calls were made is not given here.
# Assay: inhibition of WNV-induced cytopathic effect – cell-based, CPE readout (AID 1621)
# Conditions: West Nile virus-infected cells, at 10 µM, stronger effect = higher value
row,SMILES,CPE inhibition
1,CCOC(=O)Nc1cccc([As](=O)(O)O)c1,inactive: -0.1%
2,O=P(Nc1ccccn1)(c1cccc2ccccc12)c1cccc2ccccc12,inactive: -0.36%
3,Cc1cc(SC(NC=O)C(Cl)(Cl)Cl)ncn1 (stereo unspecified),inactive: -0.09%
4,O=[N+]([O-])c1ccc(Nc2ccc(Oc3ccc([N+](=O)[O-])cc3[N+](=O)[O-])cc2)c([N+](=O)[O-])c1,inactive: 0.13%
5,O=C(Nc1cc([As](=O)(O)O)ccc1O)c1ccccc1,inactive: 0.79%
6,O=[N+]([O-])c1ncn(CCn2ncnc2[N+](=O)[O-])n1,inactive: -0.31%
7,CC(C)(C)C(=O)NC(Sc1ccncn1)C(Cl)(Cl)Cl (stereo unspecified),inactive: -0.06%
8,O=C(O)CNc1ccc([As](=O)(O)O)cc1,inactive: 0.79%
9,O=[N+]([O-])c1cccc(NC2=NCC(CBr)S2)c1 (stereo unspecified),inactive: 0%
10,COc1ccc(C2=NCC(CBr)S2)cc1 (stereo unspecified),inactive: -0.51%
11,O=[N+]([O-])c1cc([N+](=O)[O-])c(CCNc2ccccc2)c([N+](=O)[O-])c1,inactive: 1.55%
12,Cc1ccc(NP(=O)(Oc2ccccc2)Oc2ccccc2)nc1,inactive: -0.99%
13,O=[N+]([O-])c1cccc2n[nH]nc12,inactive: -0.42%
14,CC(=O)N1C2C3N(C(C)=O)C1C1N(C(C)=O)C(C(N1C(C)=O)N3C(C)=O)N2C(C)=O,inactive: 0.41%
15,CCN(/C(=N/P(=O)(N1CCOCC1)N1CCOCC1)N1CCOCC1)c1ccc(OC)cc1,inactive: -0.64%
16,C[N+]1=C2C=CC=CC=C2SC12C([N+](=O)[O-])=CC([N+](=O)[O-])=C[C-]2[N+](=O)[O-] (stereo unspecified),inactive: 0.45%
17,Nc1ccc([As](=O)(O)c2ccc(N)cc2)cc1,inactive: -0.28%
18,CC1CCN(C(=O)Oc2c(Cl)cc(Cl)c3cccnc23)CC1,inactive: -0.58%
19,CN(C)C(=O)OCCc1n(C)cc[n+]1C,inactive: 0.52%
20,CC(C)=N/N=C(\N)N[N+](=O)[O-],inactive: 0.83%
21,Cc1ccc(N/C(=N/P(=O)(N2CCOCC2)N2CCOCC2)N2CCOCC2)cc1,inactive: 0.28%
22,NC(=O)c1cc([N+](=O)[O-])cc([N+](=O)[O-])c1N,inactive: 0.78%
23,Clc1ccc(Cl)c(NC2=NCC(CBr)S2)c1 (stereo unspecified),inactive: -0.64%
24,CN1CCCC(OC(=O)C(c2ccccc2)c2ccccc2)C1 (stereo unspecified),inactive: -0.36%
25,Cc1ccc(OP(=O)(Nc2nccs2)Oc2ccc(C)cc2)cc1,inactive: 0.45%
26,COc1ccccc1OP(=O)(Nc1ccc(C)cn1)Oc1ccccc1OC,inactive: 0.06%

row,SMILES,CPE inhibition
1,Cc1c2non([O-])c-2c(C)[n+](=O)[n+]1[O-],inactive: -0.29%
2,O=C(NC(Sc1ccncn1)C(Cl)(Cl)Cl)c1ccccc1 (stereo unspecified),inactive: -0.81%
3,Oc1ccccc1CNc1ccccn1,inactive: -0.13%
4,CC(C)CC(=O)NC(Sc1ccc(Cl)cc1)C(Cl)(Cl)Cl (stereo unspecified),inactive: -0.53%
5,Nc1cc(N)c2nonc2c1[N+](=O)[O-],inactive: -0.07%
6,O=P(Nc1nc2ccc(Cl)cc2s1)(c1ccccc1)c1ccccc1,inactive: 1.3%
7,O=C(O)c1ccccc1[As](=O)(O)O,inactive: 0.11%
8,CC(=O)Nc1ccc([As](=O)(O)O)cc1,inactive: 1.18%
9,Cc1ccc(NP(=O)(Oc2ccccc2F)Oc2ccccc2F)nc1,inactive: 0.13%
10,CN(C(=O)Cc1ccc(Cl)c(Cl)c1)[C@H]1CCCC[C@@H]1N1CCCC1,inactive: 0.75%
11,CCOP(=O)(Nc1ccccc1)OCC,inactive: 0.15%
12,Cc1cc(SC(NC(=O)c2ccc(F)cc2)C(Cl)(Cl)Cl)ncn1 (stereo unspecified),inactive: -0.28%
13,O=[N+]([O-])c1cc([N+](=O)[O-])c(CCN2CCOCC2)c([N+](=O)[O-])c1,inactive: -1.05%
14,Nc1cccc2ccc([As](=O)(O)O)cc12,inactive: 2.16%
15,CCN(N=Nc1nonc1N)c1nonc1N,inactive: -0.2%
16,CCOC(=O)NC(Sc1ccccc1)C(Cl)(Cl)Cl (stereo unspecified),inactive: 0.1%
17,Cc1ccc(NP(=O)(Oc2cccc(C)c2)Oc2cccc(C)c2)nc1,inactive: -0.32%
18,c1ccc(-c2nn[nH]n2)c(-c2nn[nH]n2)c1,inactive: 0.34%
19,CCNC(=S)/N=C(\N)N[N+](=O)[O-],inactive: -0.18%
20,O=C(NC1CCS(=O)(=O)C1)NP(=S)(Oc1ccccc1)Oc1ccccc1 (stereo unspecified),inactive: -0.36%
21,CCC(=O)N1C2C3N(C(=O)CC)C1C1N(C(=O)CC)C(C(N1C(=O)CC)N3C(=O)CC)N2C(=O)CC,inactive: 0.29%
22,O=C(OC1CN2CCC1CC2)c1ccccc1 (stereo unspecified),inactive: 0.54%
23,Cc1ccc(OP(=O)(Nc2ccccn2)Oc2ccc(C)cc2)cc1,inactive: -1.55%
24,CC(=O)NC(SC(=S)N(CC(C)C)CC(C)C)C(Cl)(Cl)Cl (stereo unspecified),inactive: -1%
25,COC(=O)c1cc2c(s1)N=C(c1ccccc1)N(C)P2(=O)N1CCOCC1 (stereo unspecified),inactive: -0.09%
26,CN(C)C(=O)Oc1noc2ccccc12,inactive: 0.64%

row,SMILES,CPE inhibition
1,O=c1c2cc([N+](=O)[O-])ccc2[nH]c2c([N+](=O)[O-])cc([N+](=O)[O-])cc12,inactive: -2.01%
2,Cc1ccccc1OP(=O)(Nc1ccccn1)Oc1ccccc1C,inactive: 0.71%
3,CCOc1ccc(C2=NCC(CBr)S2)cc1 (stereo unspecified),inactive: 0%
4,O=P1(Nc2nc3ccc(Cl)cc3s2)COc2ccccc2O1 (stereo unspecified),inactive: -0.58%
5,CC(C)(C)C(=O)NC(Sc1ccccc1)C(Cl)(Cl)Cl (stereo unspecified),inactive: 0.97%
6,C[C@@H]1C=CCP(=O)(Oc2ccccc2)O1 (stereo partly specified),inactive: 0.4%
7,C[C@H]1OP(=O)(Oc2ccccc2)C[C@@H]2O[C@@H]21 (stereo partly specified),inactive: -0.13%
8,CC(=O)c1ccc(N2CC2c2ccncc2)cc1 (stereo unspecified),inactive: -1.04%
9,CC(=O)Nc1ccc(Oc2c([N+](=O)[O-])cc([N+](=O)[O-])cc2[N+](=O)[O-])cc1,inactive: 0.63%
10,CC(=O)Nc1ccc([As](=O)(O)O)c(O)c1,inactive: 0.14%
11,CC(C)C(=O)NC(Sc1ccccc1)C(Cl)(Cl)Cl (stereo unspecified),inactive: -0.5%
12,O=P(Nc1nccs1)(c1ccccc1)c1ccccc1,inactive: 0%
13,c1nnnn1CCn1cnnn1,inactive: 0.35%
14,O=P(Nc1ccccn1)(c1ccc(Br)cc1)c1ccc(Br)cc1,inactive: -0.82%
15,CN(C)C1(CNC(=O)c2ccc(Cl)c(S(N)(=O)=O)c2)CCCCC1,inactive: 0.34%
16,C[C@H]1OP(=O)(Oc2ccccc2)[C@H](O)[C@H](O)[C@H]1N=[N+]=[N-] (stereo partly specified),inactive: -0.07%
17,O=P(Nc1nc2ccccc2s1)(c1ccccc1)c1ccccc1,inactive: -0.03%
18,O=[As](O)(c1ccccc1)c1ccc(O)cc1,inactive: 0.57%
19,O=[N+]([O-])c1ccc(O)c(/C=N/Nc2ccc([N+](=O)[O-])cc2[N+](=O)[O-])c1,inactive: 2.89%
20,O=[N+]([O-])c1ncn(CCn2cnc([N+](=O)[O-])n2)n1,inactive: 0.13%
21,CC(=O)NC(SC(=S)N(C)C)C(Cl)(Cl)Cl (stereo unspecified),inactive: -0.03%
22,O=C(OC1CN2CCC1CC2)c1cccc(Cl)c1 (stereo unspecified),inactive: 0.73%
23,Nc1ccc([As](=O)(O)c2ccc([N+](=O)[O-])cc2)cc1,inactive: -0.16%
24,C(Cc1nn[nH]n1)Cc1nn[nH]n1,inactive: 0.56%
